Results of unrelated studies side by side (data: NIAID ChemDB).

All rows: whole-cell or culture tests; agent: Varicella zoster virus; measure: EC50

An empty or dashed field is not shown. Two numbers with a dash give a range or band. Rows are shuffled and stem from different studies. ECn: concentration that inhibits the pathogen or its effect by n%.

SMILES,read by,strain or isolate,cells,value
CCCCCCc1cc2cn([C@H]3C[C@H](O)[C@@H](CO)O3)c(=O)nc2s1,plaque count,OKA,HEL,0.08 µM
CCOC(=O)/C=C/C=C/[C@H]1O[C@@H](n2ccc(=O)[nH]c2=O)[C@H](O)[C@@H]1O,,OKA,HEL,>120 µM
O=c1[nH]c(=O)n([C@H]2C[C@H](O)[C@@H](CO)O2)cc1/C=C/Br,plaque count,TK+/YS,HEL,0.008 µM
Cc1cn([C@@H]2O[C@H](CO)[C@@H](O)[C@@H]2O)c(=O)[nH]c1=O,cytopathic effect,VEX411,HEF,0.04 µg/mL
CCCCCCCOc1ccc(-c2cc3cn([C@H]4C[C@H](O)[C@@H](CO)O4)c(=O)nc3o2)cc1,cytopathic effect,OKA,HEL,<0.5 µM
O=c1[nH]c(=O)n([C@@H]2O[C@H](CO)[C@@H](O)[C@@H]2O)cc1/C=C/Br,plaque count,07/1 (TK-),HEL,>57 µM
C[C@H](Cn1nc2nc(N)[nH]c(=O)c2n1)OCP(=O)(O)O,cytopathic effect,YS (TK+),HEL,>20 µg/mL
O=c1nc2oc(CCCCCCCCCBr)cc2cn1[C@H]1C[C@H](O)[C@@H](CO)O1,plaque count,OKA,HEL,0.03 µM
COc1ccc2c(c1)OC1(C=C2)N(C)c2ccccc2C1(C)C,plaque count,OKA (TK+),HEL,6 µM
Cc1cc([C@@H]2C[C@H](O)[C@@H](CO)O2)c(F)cc1F,plaque count,(TK+)/OKA,HEL,>200 µM
O=C(O)P(=O)(O)O,cytopathic effect / ELISA,9/84-A,HEL,140 µM
Nc1nc(=O)n([C@H]2C[C@H](O)[C@@H](CO)O2)cc1/C=C\Cl,plaque count,YS/R (TK-),HEL,>40 µg/mL
OC[C@H]1CC(n2cnc3c(NC4CC4)ncnc32)C[C@@H]1CO,,YS/R (TK-),HEL,>100 µg/mL
O=C(O)P(=O)(O)O,cytopathic effect,OKA (WILD TYPE),HEL,39.8 µM
O=c1[nH]c(=O)n([C@H]2C[C@H](O)[C@@H](CO)O2)cc1/C=C/Br,cytopathic effect / ELISA,9/84,HEL,0.7 µM
CC1(C)[C@@H](CCO)C[C@H]1n1nnc2c(=O)[nH]cnc21,plaque count,(TK-)07/1,HEL,>20 µg/mL
CCCCCC[C@@H]([C@H](C)O)n1cnc2c(N)ncnc21,cytopathic effect,VEX411,HEF,30 µg/mL
CCCCCCCCc1cc2cn([C@H]3C[C@H](O)[C@@H](CO)O3)c(=O)nc2o1,plaque count,YS,HEL,0.02 µM
Nc1nc2c(ncn2CCC(CO)CO)c(=O)[nH]1,cytopathic effect,Clinical isolate VZV-25,HEL,3.54 µM
Cc1cc([C@H]2C[C@H](O)[C@@H](CO)O2)c(Cl)cc1F,plaque count,(TK-)07/1,HEL,>200 µM
CN1c2ccccc2C(C)(C)C12C=Nc1c(ccc3ccccc13)O2,plaque count,07/1 (TK-),HEL,5.1 µM
OC[C@H]1O[C@H](c2cc(I)c(F)cc2F)C[C@@H]1O,plaque count,(TK+)/OKA,HEL,>200 µM
Nc1nc(=O)n([C@@H]2O[C@H](CO)[C@@H](O)[C@@H]2F)cc1I,plaque count,07/1 (TK-),HEL,13.8 µM
CC1(C)[C@@H](CCO)C[C@H]1n1cnc2c(N)nc(N)nc21,plaque count,(TK-)/YS/R,HEL,>50 µg/mL
Nc1nc2c(ncn2CC(CO)CCO)c(=O)[nH]1,cytopathic effect / ELISA,9/84-A,HEL,>100 µM
CN1c2ccc(Cl)cc2C(C)(C)C12C=Cc1cc([N+](=O)[O-])ccc1O2,plaque count,OKA (TK+),HEL,1.9 µM
Nc1nc2nn(CCOCP(=O)(O)O)nc2c(=O)[nH]1,cytopathic effect,OKA (TK+),HEL,40 µg/mL
CC(=O)OCCOCN1c2nc(Cc3ccccc3)[nH]c2C(N)=NS1(=O)=O,plaque count,OKA,HEL,>50 µg/mL
Cc1cn([C@@H]2O[C@H](CO)[C@H]2CO)c(=O)[nH]c1=O,plaque count,DKG,HFF,0.03 µg/mL
O=c1[nH]c(=O)n([C@H]2C[C@H](O)[C@@H](CO)O2)cc1I,plaque count,Ohtomo,HEF,1 µg/mL
O=c1[nH]c(=O)n([C@H]2C[C@H](O)[C@@H](CO)O2)cc1/C=C/Br,,TK-,HEL,>100 µM
O=c1nc2oc(CCCCCCCCCCl)cc2cn1[C@H]1C[C@H](O)[C@@H](CO)O1,plaque count,YS,HEL,0.02 µM
OC[C@H]1O[C@@H](c2cc(F)c(F)cc2F)C[C@@H]1O,plaque count,TK+/YS,HEL,>200 µM
CCCCOc1ccc(-c2cc3cn([C@H]4C[C@H](O)[C@@H](CO)O4)c(=O)nc3o2)cc1,cytopathic effect,YS/R (TK-),HEL,>50 µM
CC1(C)[C@@H](CCO)C[C@H]1n1cnc2c(=O)[nH]cnc21,plaque count,TK+/YS,HEL,>50 µg/mL
Nc1ncnc2c1ncn2C[C@@H](CO)OCP(=O)(O)O,plaque count,YS (TK+),HEL,0.11 µM
COC(=O)[C@H](C)NP(=O)(OC[C@H]1O[C@@H](n2cc(/C=C/Br)c(=O)[nH]c2=O)C[C@@H]1O)Oc1ccc(Cl)cc1,cytopathic effect,OKA,HEL,0.07 µM
COc1nc(=O)n([C@H]2C[C@H](O)[C@@H](CO)O2)cc1/C=C/Cl,plaque count,YS,HEL,2 µg/mL
Nc1ccn(C[C@@H](CO)OCP(=O)(O)O)c(=O)n1,plaque count,YS (TK+),HEL,0.58 µM
OC[C@H]1O[C@@H](c2cc(I)c(F)cc2F)C[C@@H]1O,plaque count,(TK-)/YS/R,HEL,>200 µM
O=c1[nH]c(=O)n([C@H]2C[C@H](O)[C@@H](CO)O2)cc1I,,TK-,HEL,>100 µM
Nc1ncnc2nn(C[C@@H](CO)OCP(=O)(O)O)nc12,cytopathic effect,YS/R (TK-),HEL,>100 µg/mL
Nc1nc2c(ncn2COCCO)c(=O)[nH]1,plaque count,YS (TK+),HEL,1.1 µM
O=c1[nH]cnc2c1ncn2C1C[C@H](CO)[C@@H](CO)C1,,07/1 (TK-),HEL,>100 µg/mL
CCCCCCCCCCCCc1cc2cn([C@H]3C[C@H](O)[C@@H](CO)O3)c(=O)nc2o1,plaque count,YS,HEL,1.2 µM
Nc1ccn(C[C@@H](CO)OCP(=O)(O)O)c(=O)n1,cytopathic effect,Oka PFA-resistant/A,HEL,0.44 µM
Cn1cc(C(=O)NCc2ccc(Cl)cc2)c(=O)c2cc(CN3CCOCC3)ccc21,plaque count,MO varicella isolate,HFF,0.4 µM
NC1=NS(=O)(=O)N(Cc2ccccc2)c2nc(Cc3ccccc3)[nH]c21,plaque count,YS/R (TK-),HEL,10.2 µg/mL
CC(C)Nc1ncnc2c1ncn2C1C[C@H](CO)[C@@H](CO)C1,,07/1 (TK-),HEL,>100 µg/mL
O=c1[nH]c(=O)n([C@@H]2O[C@H](CO)[C@@H](O)[C@@H]2O)cc1/C=C/Br,plaque count,YS-V10 H12,HEL,0.0005 µg/mL
OC[C@H]1O[C@H](c2ccc(F)cc2F)C[C@@H]1O,plaque count,(TK-)/YS/R,HEL,>200 µM
CCCCCCCCCCCc1cc2cn([C@H]3C[C@H](O)[C@@H](CO)O3)c(=O)nc2o1,plaque count,OKA,HEL,0.4 µM
CN1c2ccc([N+](=O)[O-])cc2C(C)(C)C12C=Cc1cc([N+](=O)[O-])ccc1O2,plaque count,YS (TK+),HEL,1.5 µM
O=c1[nH]c(=O)n([C@H]2C[C@H](O)[C@@H](CO)O2)cc1I,plaque count,YS-V10 H12,HEL,0.3 µg/mL
C[C@H](Cn1nc2ncnc(N)c2n1)OCP(=O)(O)O,cytopathic effect,YS/R (TK-),HEL,5 µg/mL
Cc1cc([C@@H]2C[C@H](O)[C@@H](CO)O2)c(F)cc1Cl,plaque count,TK+/YS,HEL,>200 µM
CC1(C)[C@@H](CCO)C[C@H]1n1nnc2c(N)nc(N)nc21,plaque count,(TK+)/OKA,HEL,20 µg/mL
Nc1nc2c(ncn2CCC(CO)CO)c(=O)[nH]1,plaque count,07/1 (TK-),HEL,98.8 µM
Nc1nc2c(ncn2C[C@@H](CO)CCO)c(=O)[nH]1,cytopathic effect / ELISA,9/84,HEL,0.7 µM
CCCCCCCCc1cc2cn([C@H]3C[C@H](O)[C@@H](CO)O3)c(=O)nc2o1,,07 (TK-),,>50 µM
Nc1nc(N)c2ncn(CCOCP(=O)(O)O)c2n1,cytopathic effect,Oka PFA-resistant/B,HEL,13.2 µM
CCOc1ccc(-c2cc3cn([C@H]4C[C@H](O)[C@@H](CO)O4)c(=O)nc3o2)cc1,cytopathic effect,07/1 (TK-),HEL,>50 µM
O=c1[nH]c(=O)n([C@H]2C[C@H](O)[C@@H](CO)O2)cc1/C=C/Br,plaque count,OKA (TK+),HEL,0.0048 µM
COc1ncnc2c1ncn2[C@@H]1O[C@H](CO)[C@@H](O)[C@@H]1O,cytopathic effect,Pritchard,MRC-5,0.5 µM
N#Cc1cc([C@H]2C[C@H](O)[C@@H](CO)O2)c(F)cc1F,plaque count,(TK-)07/1,HEL,>200 µM
O=c1[nH]c(=O)n([C@H]2C[C@H](O)[C@@H](CO)O2)cc1/C=C/Br,plaque count,HIRAI,HEF,0.002 µg/mL
Nc1ncnc2nn(C[C@@H](CF)OCP(=O)(O)O)nc12,cytopathic effect,YS (TK+),HEL,>10 µg/mL
CC(NC(=S)Nc1ccc(NC(=O)c2ccccc2F)cc1C#N)c1ccc(F)cc1,ELISA,ELLEN,HFF,0.05 µg/mL
Nc1nc2c(ncn2C[C@]2(CO)C[C@H]2CO)c(=O)[nH]1,plaque count,Kawaguchi,HEL,0.67 µg/mL
Nc1nc2c(ncn2C[C@H](CO)CCO)c(=O)[nH]1,cytopathic effect / ELISA,9/84 + PER + ULF + BIR + Y,HEL,18.6 µM
O=c1[nH]c(=O)n([C@H]2C[C@H](O)[C@@H](CO)O2)cc1/C=C/I,plaque count,OKA,HEF,0.001 µg/mL
CCCOc1ccc(-c2cc3cn([C@H]4C[C@H](O)[C@@H](CO)O4)c(=O)nc3o2)cc1,cytopathic effect,OKA,HEL,<0.5 µM
CN1c2ccc(Cl)cc2C(C)(C)C12C=Cc1c(ccc3ccccc13)O2,plaque count,OKA (TK+),HEL,>44.2 µM
Nc1nc2c(ncn2COCCO)c(=O)[nH]1,,ULF PE 9/84 (TK+),HEL,6.5–20 µM
COC(=O)C(C)(C)NP(=O)(OC[C@H]1O[C@@H](n2cc(/C=C/Br)c(=O)[nH]c2=O)C[C@@H]1O)Oc1ccccc1,cytopathic effect,OKA,HEL,11 µM

The last 9 rows once more:

| SMILES | read by | strain or isolate | cells | value |
|---|---|---|---|---|
| Nc1ncnc2nn(C[C@@H](CF)OCP(=O)(O)O)nc12 | cytopathic effect | YS (TK+) | HEL | >10 µg/mL |
| CC(NC(=S)Nc1ccc(NC(=O)c2ccccc2F)cc1C#N)c1ccc(F)cc1 | ELISA | ELLEN | HFF | 0.05 µg/mL |
| Nc1nc2c(ncn2C[C@]2(CO)C[C@H]2CO)c(=O)[nH]1 | plaque count | Kawaguchi | HEL | 0.67 µg/mL |
| Nc1nc2c(ncn2C[C@H](CO)CCO)c(=O)[nH]1 | cytopathic effect / ELISA | 9/84 + PER + ULF + BIR + Y | HEL | 18.6 µM |
| O=c1[nH]c(=O)n([C@H]2C[C@H](O)[C@@H](CO)O2)cc1/C=C/I | plaque count | OKA | HEF | 0.001 µg/mL |
| CCCOc1ccc(-c2cc3cn([C@H]4C[C@H](O)[C@@H](CO)O4)c(=O)nc3o2)cc1 | cytopathic effect | OKA | HEL | <0.5 µM |
| CN1c2ccc(Cl)cc2C(C)(C)C12C=Cc1c(ccc3ccccc13)O2 | plaque count | OKA (TK+) | HEL | >44.2 µM |
| Nc1nc2c(ncn2COCCO)c(=O)[nH]1 |  | ULF PE 9/84 (TK+) | HEL | 6.5–20 µM |
| COC(=O)C(C)(C)NP(=O)(OC[C@H]1O[C@@H](n2cc(/C=C/Br)c(=O)[nH]c2=O)C[C@@H]1O)Oc1ccccc1 | cytopathic effect | OKA | HEL | 11 µM |